Measurements reported in PubChem BioAssay AID1259414 (Drosophila RNAi Screening Center, 2018)
In all, the deposit lists about 24,000 reagents; this is an unselected part of those that have a named target and a result. In the full data, about 1,210 (5%) were called active. 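Inactive calls also include excluded dsRNAs with several or no targets, genes unexpressed in JW18, and well A1, regardless of score.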 Entries without a mark were called inactive. A plus sign joins genes that one reagent is predicted to hit. No sequences are given here.

- Test: 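Fly genes that alter Wolbachia amount inside host cells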 (primary screen)
- Cell system: Drosophila JW18 cells infected with Wolbachia
- Reagent: long dsRNA against Drosophila genes, 0.25 µg dsRNA per well of a 384-well plate
- Duration: 5 days
- Conditions: cells persistently infected with Wolbachia before knock-down; no added drug
- Measured: 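Automated imaging of bacterial rRNA staining divided by host cell count, reported as plate-normalised robust z-score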
- Scale: Wolbachia per cell robust z: higher = more Wolbachia per host cell than the plate typical
- Rule for the call: 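Hit when robust z is 1.5 or more, or -1.5 or less, in at least two of three replicates; excludes dsRNAs with several or no targets, genes not expressed in JW18 and well A1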

Target gene	DRSC id	Wolbachia per cell robust z, rep 1	Wolbachia per cell robust z, rep 2	Wolbachia per cell robust z, rep 3
EbpIII (GeneID 49821)	DRSC04638	-0.282	0.552	0.873
Alp10 (GeneID 38632)	DRSC09749	-0.201	-0.217	0.602
Alp10 (GeneID 38632)	DRSC29230	-0.072	0.298	1.02
Alp10 (GeneID 38632)	DRSC41597	0.474	-0.1	0.532
Ran (GeneID 44072)	DRSC20364	-0.271	0.144	1.24
Ran (GeneID 44072)	DRSC28160	0.916	1.47	0.39
Pcyt1 (GeneID 117353)	DRSC08157	-1.16	-0.39	-0.523
Pcyt1 (GeneID 117353)	DRSC27869	0.337	0.0846	-0.848
alpha-Man-IIb (GeneID 41913)	DRSC16898	0.256	0.373	0.533
alpha-Man-IIb (GeneID 41913)	DRSC24186	-0.604	-1.55	-0.0915
alpha-Man-IIb (GeneID 41913)	DRSC38984	-0.243	0.408	1.19
CG31717 (GeneID 318911)	DRSC01121	-1.27	-1.41	-0.902
CG31717 (GeneID 318911)	DRSC41454	1.1	-1.57	0.118
CG32857 + CG33502 + CG32500	DRSC20817	0.532	-0.356	-9.16
CG11694 (GeneID 40985)	DRSC14354	0.641	0.0411	-0.74
CG11694 (GeneID 40985)	DRSC24061	-2.56	-1.27	-3.69
CG11694 (GeneID 40985)	DRSC39064	0.555	-0.204	0.791
Naa80 (GeneID 41195)	DRSC16429	-0.462	-0.432	-0.481
Naa80 (GeneID 41195)	DRSC28038	0.185	0.393	0.59
RpLP2 (GeneID 36855)	DRSC07539	1.81 (active)	1.76	1.2
RpLP2 (GeneID 36855)	DRSC28510	-1.12	1.24	0.379
Magi (GeneID 37403)	DRSC04247	0.263	0.361	-0.536
Magi (GeneID 37403)	DRSC04451	0.772	-0.195	0.0413
Magi (GeneID 37403)	DRSC26209	-1.26	-0.404	-0.522
RpS25 (GeneID 41343)	DRSC16837	0.566 (active)	2.13	1.95
RpS25 (GeneID 41343)	DRSC29990	2.29 (active)	1.77	2.79
roh (GeneID 246602)	DRSC04003	-0.339	-0.211	0.0227
lectin-24A (GeneID 53543)	DRSC00604	0.888	-1.69	-2.18
